Compound potency records, mixed from different reports. Data source: NIAID ChemDB in PubChem.

Shared fields: tests in culture; agent: HIV-1; cells: MT-2; endpoint: inhibition

Inhibition is in % at the dose shown (toxicity tests: loss of growth or viability). Rows are shuffled and stem from different studies. Blank or dashed fields: not listed here.

SMILES | strain or isolate | method | dose | result
O=C(Nc1cc(NC(=O)c2ccccc2)cc(-c2nc3ccccc3c(=O)o2)c1)c1ccccc1 | IIIB | p24 | 10 µM | 22.5%
CC(C)CN(C[C@@H](O)[C@H](Cc1ccccc1)NC(=O)[C@@H](NC(=O)CNC(C)(C)c1ccccc1)C(C)(C)C)S(=O)(=O)c1ccc(N)cc1 | RF |  | 90 µM | <1%
O=C(C(=O)N1CCN(C(=O)c2cccc(F)c2)CC1)c1c[nH]c2ccccc12 | BRU | RT activity | 10 µM | 92.5%
Nc1ccn([C@H]2CC[C@@H](CO)O2)c(=O)n1 | IIIB | cytopathic effect / MTT | 1.2 µM | 63%
CC(C)CN(C[C@@H](O)[C@H](Cc1ccccc1)NC(=O)[C@@H](NC(=O)CNC(C)(C)c1cccc(F)c1)C(C)C)S(=O)(=O)c1ccc2ncsc2c1 | RF |  | 90 µM | <1%
COc1ccc(C[C@H](C[C@H](O)[C@H](Cc2ccccc2)NC(=O)OC(C)(C)C)C(=O)N[C@H](C(=O)N[C@@H](Cc2ccccc2)C(=O)N2CCOCC2)C(C)C)cc1 | MN | RT activity | 0.03 µM | 90%
O=C(C(=O)N1CCN(C(=O)c2ccccc2)CC1)c1c[nH]c2ccc(Cl)cc12 | BRU | RT activity | 10 µM | 95.8%
CC1=NNC(N)=N/C1=C/C(Sc1ccc(Cl)cc1)c1ccc([N+](=O)[O-])cc1 | RF |  | 20 µM | 43.31%
CC(C)CN(C[C@@H](O)[C@H](Cc1ccccc1)NC(=O)[C@@H](NC(=O)CNC(C)(C)c1ccccc1)C(C)(C)C)S(=O)(=O)c1ccc2ncsc2c1 | RF |  | 90 µM | <1%
CC(=O)Oc1ccc2[nH]cc(C(=O)C(=O)N3CCN(C(=O)c4ccccc4)CC3)c2c1 | BRU | RT activity | 10 µM | 75.8%
Cc1cccc(C)c1OCC(=O)N[C@@H](Cc1ccccc1)[C@H](O)[C@@H](O)[C@@H]1CCCN1C(=O)COc1c(C)cccc1C | IIIB | MTT | 0.000001 µM | 20%
C[C@H](NC(=O)[C@]12CCC(C)(C)C[C@H]1C1=CC[C@@H]3[C@@]4(C)C[C@@H](O)[C@H](O)C(C)(C)[C@@H]4CC[C@@]3(C)[C@]1(C)CC2)C(=O)O | pNL4-3 | p24 / ELISA | 25 µM | 39.1%
COc1ccc([C@@H]2CC(=O)c3c(O)cc(O[C@@H]4O[C@H](CO[C@@H]5O[C@@H](C)[C@H](OP(=O)(O)O)[C@@H](OP(=O)(O)O)[C@H]5O)[C@@H](OP(=O)(O)O)[C@H](OP(=O)(O)O)[C@H]4O)cc3O2)cc1O | IIIS | syncytia | 500 µg/mL | 100%
O=C(C(=O)N1CCN(C(=O)c2ccccc2)CC1)c1c[nH]c2c(Cl)cccc12 | BRU | RT activity | 10 µM | >98%
CCOc1cccc(-c2cc(C(=O)N/N=C/c3ccc(OC)c(CN4CCOCC4)c3)c3ccccc3n2)c1 | IIIB | p24 | 10 µM | 62.6%
O=C(C(=O)N1CCN(C(=O)c2ccccc2F)CC1)c1c[nH]c2ccccc12 | BRU | RT activity | 10 µM | >98%
CC(C)CN(C[C@@H](O)[C@H](Cc1ccccc1)NC(=O)[C@@H](NC(=O)CNC(C)(C)c1ccccc1)C(C)(C)C)S(=O)(=O)c1ccc2nc(N)sc2c1 | RF |  | 90 µM | <1%
C[C@H](NC(=O)CCCCCNC(=O)[C@]12CCC(C)(C)C[C@H]1C1=CC[C@@H]3[C@@]4(C)C[C@@H](O)[C@H](O)C(C)(C)[C@@H]4CC[C@@]3(C)[C@]1(C)CC2)C(=O)O | pNL4-3 | p24 / ELISA | 25 µM | 29.8%
Cc1nnc(N)nc1C/C=C/C(Sc1ccc(Cl)cc1)c1cc(Cl)cc(Cl)c1 | RF |  | 6.33 µM | 36.33%
Nc1ccn([C@H]2C=C[C@@H](CO)O2)c(=O)n1 | LAV | RT activity | 0.1 µM | 66%
C[C@H](NC(=O)[C@]12CCC(C)(C)C[C@H]1C1=CC[C@@H]3[C@@]4(C)C[C@@H](O)[C@H](O)C(C)(C)[C@@H]4CC[C@@]3(C)[C@]1(C)CC2)C(=O)NCC(=O)O | pNL4-3 | p24 / ELISA | 25 µM | -84.8%
COc1cc(/C=C2\C(=O)N(c3ccccc3)N=C2c2ccccc2)cc(Br)c1OCC(N)=O | IIIB | p24 | 10 µM | 64.2%
CC(C)[C@H](NC(=O)[C@H](Cc1ccccc1)C[C@H](O)[C@H](Cc1ccccc1)NC(=O)OC(C)(C)C)C(=O)N[C@@H](Cc1ccccc1)C(=O)N1CCOCC1 | Z-84 | RT activity | 0.1 µM | 90%
O=C(C(=O)N1CCN(C(=O)c2ccc(O)cc2)CC1)c1c[nH]c2ccccc12 | BRU | RT activity | 10 µM | 87.7%
Cc1cc(NC(=O)C(=O)NCCN2CCN(C(=O)c3ccccc3F)CC2)ccc1Br | IIIB | p24 | 10 µM | 44.9%
CC(=O)Oc1ccc(C(=O)N2CCN(C(=O)C(=O)c3c[nH]c4ccccc34)CC2)cc1 | BRU | RT activity | 10 µM | 91.5%
Nc1ccn([C@@H]2CC[C@H](CO)O2)c(=O)n1 | IIIB | cytopathic effect / MTT | 1.2 µM | 17%
O=C(C(=O)N1CCN(C(=O)c2ccc(F)c(F)c2)CC1)c1c[nH]c2ccccc12 | BRU | RT activity | 10 µM | 32.7%
CC(C)CN(C[C@@H](O)[C@H](Cc1ccccc1)NC(=O)[C@@H](NC(=O)CNC(C)(C)c1cccc(F)c1)C(C)(C)C)S(=O)(=O)c1ccc(N)cc1 | RF |  | 90 µM | <1%
COC(=O)CNC(=O)[C@]12CCC(C)(C)C[C@H]1C1=CC[C@@H]3[C@@]4(C)C[C@@H](O)[C@H](O)C(C)(C)[C@@H]4CC[C@@]3(C)[C@]1(C)CC2 | pNL4-3 | p24 / ELISA | 10 µM | 24.5%
O=C(C(=O)N1CCN(C(=O)c2ccccc2)CC1)c1c[nH]c2cc(F)ccc12 | BRU | RT activity | 10 µM | >98%

The last 4 rows once more:

SMILES	strain or isolate	method	dose	result
O=C(C(=O)N1CCN(C(=O)c2ccc(F)c(F)c2)CC1)c1c[nH]c2ccccc12	BRU	RT activity	10 µM	32.7%
CC(C)CN(C[C@@H](O)[C@H](Cc1ccccc1)NC(=O)[C@@H](NC(=O)CNC(C)(C)c1cccc(F)c1)C(C)(C)C)S(=O)(=O)c1ccc(N)cc1	RF		90 µM	<1%
COC(=O)CNC(=O)[C@]12CCC(C)(C)C[C@H]1C1=CC[C@@H]3[C@@]4(C)C[C@@H](O)[C@H](O)C(C)(C)[C@@H]4CC[C@@]3(C)[C@]1(C)CC2	pNL4-3	p24 / ELISA	10 µM	24.5%
O=C(C(=O)N1CCN(C(=O)c2ccccc2)CC1)c1c[nH]c2cc(F)ccc12	BRU	RT activity	10 µM	>98%